A mixed list of measured activities; the numbers were collected in NIAID ChemDB.

All rows: host cell toxicity; cells: MT-4; read-out: CC50

CCn is the concentration with n% toxicity to the cells. Rows are shuffled and stem from different studies.

compound	value
COC([C@@H]1OC[C@@](O)(CO)[C@H]1N=[N+]=[N-])n1cnc2c(N)ncnc21	>300 µM
O=C(CC1Nc2ccccc2S(=O)(=O)n2cccc21)OCc1ccc(Cl)cc1	48 µM
CCn1cc(C(=O)O)c(=O)c2c(F)c(N3CCN(CN4C(=O)/C(=N\c5ncc(Cc6cc(OC)c(OC)c(OC)c6)c(N)n5)c5cc(C)ccc54)C(C)C3)c(F)cc21	92.6 µM
COc1cccc(OC)c1C1SCC(=O)N1c1cc(C)ccn1	249 µM
CC(c1nnc(SCc2ccc(Br)cc2)o1)N(Cc1ccc(Br)cc1)S(=O)(=O)c1ccc(Cl)cc1	>125 µg/mL
CC(C)c1c(Cc2ccccc2)nc2n(c1=O)C(OCCO)CS2	<100 µM
Clc1ccc2c(c1)nnc1ccnn12	>200 µM
O=c1ccn([C@@H]2CO[C@@H](CO)S2)c(=O)[nH]1	>100 µg/mL
CCOC(CSc1nc(Cc2ccccc2)c(C(C)C)c(=O)[nH]1)OCC	<100 µM
O=C(COCC1Nc2ccccc2S(=O)(=O)n2cccc21)c1ccc(Cl)cc1	240 µM
CCC(C)c1c(OC2CCCC2)c2cc(Cl)ccc2[nH]c1=O	26.3 µM
CCOC(=O)c1cnn2c1n[n+]([O-])c1ccc(Cl)cc12	13 µM
Cc1ccc(S(=O)(=O)NC(C)c2nnc(SCc3ccc(Cl)cc3)o2)cc1	27.93 µg/mL
CC(/C=C/C=C\C=C\C=C(/C)C(=O)NC(C)CO)=C\C(C)C(O)/C(C)=C/C(C)CCc1ccccc1	102 µM
CSCCC(NS(=O)(=O)c1ccc(Cl)cc1)c1nnc(SCc2ccccc2)o1	12.67 µg/mL
[O-][n+]1nc2c(Br)cnn2c2ccc(Cl)cc21	>200 µM
O=C(CC1Nc2ccccc2S(=O)(=O)n2cccc21)Oc1ccc(Cl)cc1	185 µM
Nc1nc(N)c2ncn([C@@H]3O[C@H](CO)[C@H]3CO)c2n1	130 µg/mL
COC(=O)c1ccccc1NCC(O)Cn1c(C(=O)NC(C)(C)C)cc2cc(Cl)ccc21	112 µM
CCc1c(OC#CC2CC2)c2cc(F)ccc2[nH]c1=O	8 µM
CNC(=O)CC1(C(=O)NC)Nc2ccccc2S(=O)(=O)n2cccc21	>255 µM
Nc1nc2c(ncn2[C@H]2CS[C@@H](CO)O2)c(=O)[nH]1	100 µg/mL
CC(C)c1c(OCC2CCC2)c2cc(Cl)ccc2[nH]c1=O	44 µM
CC(C)c1c(Cc2ccccc2)n2c(nc1=O)SCC2CBr	<100 µM
COc1ccc(OC)c2c(NC(=S)N[C@H]3C[C@H](n4cc(C)c(=O)[nH]c4=O)O[C@@H]3CO)c3ccccc3c(C#N)c12	7.1 µg/mL
Cc1ccc(C(=O)N2c3ccccc3S(=O)(=O)n3cccc3C2CC(=O)O)cc1	>326 µM
Cc1ccnc(N2C(=O)CSC2c2c(F)ccc(C)c2Cl)n1	155.9 µM
CCOC(=O)c1ccn(CC(O)CNc2ccccc2)c1	>200 µM
COc1cc(Cc2cnc(/N=C3\C(=O)N(CN4CCN(c5cccc(C(F)(F)F)c5)CC4)c4ccc(C)cc43)nc2N)cc(OC)c1OC	106.2 µM
CC.CC(C)C[C@H](NC(=O)[C@@H](NC(=O)[C@H](Cc1c[nH]c2ccccc12)NC(=O)CCCCCCC(=O)Nc1ccn([C@H]2CC[C@@H](CO[Si](c3ccccc3)(c3ccccc3)C(C)(C)C)O2)c(=O)n1)C(C)C)[C@@H](O)CC(=O)NC(Cc1ccccc1)c1ccccc1	50 µM
COc1cc(Cc2cnc(/N=C3\C(=O)N(CN4CCN(c5ccc([N+](=O)[O-])cc5)CC4)c4ccc(C)cc43)nc2N)cc(OC)c1OC	47.96 µM
Nc1nc(=O)n([C@H]2CO[C@@H](CO)S2)cc1F	>100 µg/mL
O=C(O)CC1Nc2ccccc2S(=O)(=O)n2cccc21	>342 µM
CCOC(=O)c1cn(CC(O)CNc2ccccc2Cl)cc1-c1ccccc1	47.3 µM
COc1cccc(OC)c1C1SCC(=O)N1c1cccc(Br)n1	>316.2 µM
CCc1cc(NCc2cc(C)c(C)nc2OC)c(=O)[nH]c1C	>50 µM
CCOC(=O)c1cc2ccccc2n1CC(O)CNc1ccccc1C(=O)OC	39 µM
CC(C)c1c(OC#CC2CC2)c2cc(Cl)ccc2[nH]c1=O	60 µM
[O-][n+]1nc2ccnn2c2ccc(Cl)cc21	>200 µM
COCCCCCCCCCCCC(=O)O	140 µM
CCOC(CSc1nc(Cc2cccc3ccccc23)c(CC)c(=O)[nH]1)OCC	<100 µM
O=[N+]([O-])c1cnn2c1nnc1cc(Cl)ccc12	1.4 µM
CCOC(NC(=S)Nc1ccccn1)C(=O)c1ccc(Cl)cc1	210 µM
N#Cc1cnn2c1nnc1ccccc12	>200 µM
Cc1cccc(C)c1C1SCC(=O)N1c1cccc(Br)n1	268.3 µM
CC(C)c1c(Cc2ccccc2)n2c(nc1=O)SCC2OCCO	>100 µM
CSCCC(NS(=O)(=O)c1ccc(C)cc1)c1nnc(SCc2ccc(Br)cc2)o1	11.75 µg/mL
Nc1nc2c(ncn2[C@@H]2O[C@H](CO)[C@H]2CO)c(=O)[nH]1	210 µg/mL
CS(=O)(=O)OCC1Nc2ccccc2S(=O)(=O)n2cccc21	130 µM
CCOC(CSc1nc(Cc2ccccc2)c(CC)c(=O)[nH]1)OCC	<100 µM
[O-][n+]1nc2ccnn2c2ccccc21	>200 µM
CC(C)C[C@H](NC(=O)[C@@H](NC(=O)[C@H](Cc1c[nH]c2ccccc12)NC(=O)CCCCCCC(=O)Nc1ccn([C@H]2CC[C@@H](CO)O2)c(=O)n1)C(C)C)[C@@H](O)CC(=O)NC(Cc1ccccc1)c1ccccc1	100 µM
CCOC1CSc2nc(Cc3ccccc3)c(CC)c(=O)n21	>100 µM
CCc1cc(CNc2cc(CC)c(C)[nH]c2=O)c(OC)nc1C	>50 µM
Cc1cc(=O)oc2cc(OC(C)(C)[C@@H](COC(=O)C34CCC(C)(C(=O)O3)C4(C)C)OC(=O)C34CCC(C)(C(=O)O3)C4(C)C)ccc12	20 µM
O=C(/C=C/c1ccc(O)c(O)c1)O[C@H]1[C@H](O)[C@@H](O)[C@H](Oc2cc(O)c3c(=O)cc(-c4ccc(O)cc4)oc3c2)O[C@@H]1C(=O)O	>150 µg/mL
COc1cc(Cc2cnc(/N=C3\C(=O)N(CN4CCN(c5c(OC)cc6c(c5F)c(=O)c(C(=O)O)cn6C5CC5)CC4C)c4ccc(C)cc43)nc2N)cc(OC)c1OC	81.4 µM
COC([C@@H]1OC[C@@](O)(CO)[C@H]1N=[N+]=[N-])n1ccc(N)nc1=O	>300 µM
COc1cccc(F)c1C1SCC(=O)N1c1cc(C)cc(C)n1	≥209.4 µM
COc1cc(Cc2cnc(/N=C3\C(=O)N(CN4CCNCC4)c4ccc(C)cc43)nc2N)cc(OC)c1OC	94.2 µM
CCc1cc(NCc2ccccc2OC)c(=O)[nH]c1C	>50 µM
Cc1cc(=O)oc2c([C@H](COC(=O)C34CCC(C)(C(=O)O3)C4(C)C)OC(=O)C34CCC(C)(C(=O)O3)C4(C)C)c(OC(C)C)ccc12	20 µM
[O-][n+]1nc2c(Br)cnn2c2cc(Cl)ccc21	>200 µM
O=C1CC2c3cccn3S(=O)(=O)c3ccccc3N12	365 µM
O=S(=O)(c1cccc2cnccc12)N1CCNCC1	14.8 µg/mL
O=C(c1ccc(Cl)cc1)C(O)NC(=S)Nc1ccccn1	>400 µM
Cc1cccc(N2C(=O)CSC2c2c(C(F)(F)F)ccc(Cl)c2F)n1	121.5 µM
COc1cc(Cc2cnc(/N=C3\C(=O)N(CN4CCN(c5ccc6c(c5F)c(=O)c(C(=O)O)cn6C5CC5)CC4)c4ccc(C)cc43)nc2N)cc(OC)c1OC	86.1 µM

8 of the rows above, restated:

{"compound": "CCn1cc(C(=O)O)c(=O)c2c(F)c(N3CCN(CN4C(=O)/C(=N\\c5ncc(Cc6cc(OC)c(OC)c(OC)c6)c(N)n5)c5cc(C)ccc54)C(C)C3)c(F)cc21", "value": "92.6 µM"}
{"compound": "CC(c1nnc(SCc2ccc(Br)cc2)o1)N(Cc1ccc(Br)cc1)S(=O)(=O)c1ccc(Cl)cc1", "value": ">125 µg/mL"}
{"compound": "O=[N+]([O-])c1cnn2c1nnc1cc(Cl)ccc12", "value": "1.4 µM"}
{"compound": "CCc1cc(CNc2cc(CC)c(C)[nH]c2=O)c(OC)nc1C", "value": ">50 µM"}
{"compound": "O=C(CC1Nc2ccccc2S(=O)(=O)n2cccc21)OCc1ccc(Cl)cc1", "value": "48 µM"}
{"compound": "Cc1ccnc(N2C(=O)CSC2c2c(F)ccc(C)c2Cl)n1", "value": "155.9 µM"}
{"compound": "[O-][n+]1nc2c(Br)cnn2c2ccc(Cl)cc21", "value": ">200 µM"}
{"compound": "CC(C)C[C@H](NC(=O)[C@@H](NC(=O)[C@H](Cc1c[nH]c2ccccc12)NC(=O)CCCCCCC(=O)Nc1ccn([C@H]2CC[C@@H](CO)O2)c(=O)n1)C(C)C)[C@@H](O)CC(=O)NC(Cc1ccccc1)c1ccccc1", "value": "100 µM"}